From US20250243261A1

Target: HA H4 Hubei, A/swine/Hubei/06/2009(H4N1) (Influenza A virus)

**Q.** MEDI8852 UCA VH K58S Fab was tested. Which Kd did it give?
**A.** Its Kd is 2500 nM.

**Q.** For “MEDI8852 UCA VH K58S-P75R IgG (antibody)”, which Kd is on record?
**A.** Its Kd is 47 nM.

**Q.** How did the Kd turn out when “MEDI8852 UCA VH K58S-V65P-P75R IgG (antibody)” was run?
**A.** The Kd was 72 nM.
